Literature values in publication PMC6832962, “Identification of Crucial Residues in α-Conotoxin EI Inhibiting Muscle Nicotinic Acetylcholine Receptor” (2019).

Tested on: α3β2 nAChR

**Q.** Which IC50 does the source give for GIC here?
**A.** 1.1 nM
